Substrate in the data set: O=C1Nc2ccc(S(=O)(=O)NCCCCC(F)(F)P(=O)(O)O)c3cccc1c23
Kind of data set: Activity at Mycobacterium tuberculosis recombinant lumazine synthase after 30 mins by fluorescence assay. The gist of the method:
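Recombinant M. tuberculosis lumazine synthase (2 μM) in 100 mM Tris-HCl pH 7.0, 100 mM NaCl, 5 mM DTT, 2% DMSO. Dihydroxybutanone phosphate was fixed at 100 μM, pyrimidinedione substrate varied 3–100 μM, and inhibitor 0–200 μM. Reactions were started with the pyrimidinedione substrate. Lumazine formation was read at 408 nm for 30 min at 27 °C. Velocity–substrate data were fitted by nonlinear regression to alternative inhibition models.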

B1: 6,7-dimethyl-8-ribityllumazine synthase (Mycobacterium tuberculosis), P9WHE9 (protein)
chain: MKGGAGVPDLPSLDASGVRLAIVASSWHGKICDALLDGARKVAAGCGLDDPTVVRVLGAIEIPVVAQELARNHDAVVALGVVIRGQTPHFDYVCDAVTQGLTRVSLDSSTPIANGVLTTNTEEQALDRAGLPTSAEDKGAQATVAALATALTLRELRAHS
Consider B1, for which the kcat turned out to be 0.0095 s⁻¹.

(Values after ChEMBL document CHEMBL1157805, “Virtual screening, selection and development of a benzindolone structural scaffold for inhibition of lumazine synthase” (Bioorg Med Chem, 2010).)
